A mixed list of measured activities; the numbers were collected in NIAID ChemDB.

Shared fields: host cell toxicity; cell line: MT-2; endpoint: CC50

a–b is a range or a potency band. Neighbouring rows are from separate reports. An empty or dashed field is not shown. CCn is the concentration with n% toxicity to the cells.

CC[C@H](C)[C@H]1NC(=O)[C@@H](NC(=O)[C@@H](CC(C)C)NC)[C@@H](C)OC(=O)[C@H](Cc2ccc(OC)cc2)N(C)C(=O)[C@@H]2CCCN2C(=O)[C@H](CC(C)C)NC(=O)C(C)(C)NC(=O)C[C@@H]1O ; method: MTT ; result: >57.33 µM
CC(C)[C@H](NC(=O)OC(C)(C)C)C(=O)N[C@@H](Cc1ccccc1)[C@H]1OP(c2ccccc2)(c2ccccc2)(c2ccccc2)O[C@@H]1[C@H](Cc1ccccc1)NC(=O)[C@@H](NC(=O)OC(C)(C)C)C(C)C ; result: 5 µg/mL
Cc1cn([C@H]2C[C@H](N=[N+]=[N-])[C@@H](COC(=O)c3ccncc3)O2)c(=O)[nH]c1=O ; method: trypan blue ; result: 150 µM
CC1=CC2=C(C(C)C)C(O)C(=O)/C(=C\N[C@H](C)C(=O)O)C2C(O)=C1c1c(C)cc2c(C(C)C)c(O)c(O)c(C=N[C@@H](C)C(=O)O)c2c1O.[Na+].[Na+] ; method: MTT ; result: 84.64 µM
COc1cccc(CN2C(=O)N(Cc3cccc(C(=O)Nc4cnccn4)c3)[C@H](Cc3ccccc3)[C@H](O)[C@@H](O)[C@H]2Cc2ccccc2)c1 ; result: >50 µM
CC[C@H](C)[C@H]1NC(=O)[C@@H](NC(=O)[C@@H](C)N(C)C(=O)[C@@H]2CCCN2C(=O)C(C)=O)[C@@H](C)OC(=O)[C@H](Cc2ccc(OC)cc2)N(C)C(=O)[C@@H]2CCCN2C(=O)[C@H](CC(C)C)NC(=O)[C@@H](C)C(=O)[C@H](C(C)C)OC(=O)C[C@@H]1O ; method: MTT ; result: >46.81 µM
O=S(=O)(OC1/C(=C/c2ccco2)CNC/C1=C\c1ccco1)c1ccccc1 ; method: XTT ; result: >101 µM
CC(C)(C)NC(=O)[C@@H]1C[C@@H]2CCCC[C@@H]2N1C(=O)[C@@H](O)[C@H](Cc1ccccc1)NC(=O)[C@H](CC(N)=O)NC(=O)COc1cccc2ccccc12 ; result: >10 µM
Cc1cn([C@H]2C[C@H](N=[N+]=[N-])[C@@H](COC(=O)C(=O)NC(Cc3ccccc3)C(=O)O)O2)c(=O)[nH]c1=O ; method: sulforhodamine ; result: 400 µM
Nc1ccn([C@H]2CC[C@@H](CO)O2)c(=O)n1 ; result: >32 µM
Fc1ccc(N=C2/C(=C/c3ccco3)CNC/C2=C\c2ccco2)cc1 ; method: XTT ; result: >115 µM
Nc1nc(NC2CC2)c2ncn([C@H]3C=C[C@@H](CO)O3)c2n1 ; result: 87 µM
O=C(Nc1ccccn1)c1cccc(CN2C(=O)N(Cc3cccc([N+](=O)[O-])c3)[C@H](Cc3ccccc3)[C@H](O)[C@@H](O)[C@H]2Cc2ccccc2)c1 ; result: >50 µM
Cc1cn([C@H]2C[C@H](N=[N+]=[N-])[C@@H](COC(=O)C(=O)N[C@@H](CC(C)C)C(=O)O)O2)c(=O)[nH]c1=O ; method: trypan blue ; result: 10 µM
C(=C1/CNC/C(=C\c2ccco2)C1=NNc1ccccc1)/c1ccco1 ; method: XTT ; result: >116 µM
Cc1cn([C@H]2C[C@H](N=[N+]=[N-])[C@@H](CO)O2)c(=O)[nH]c1=O ; result: 109.4 µM
CCCc1cc(=O)oc2c3c(c4c(c12)OC(C)(C)C=C4)O[C@H](C)[C@@H](C)[C@@H]3O ; result: 10–20 µM
C[C@H](Cn1cnc2c(N)ncnc21)OCP(=O)(O)O ; result: 440 µM
O=C(/C=C/c1ccc(O)c(O)c1)O[C@@H]1CC(O)(C(=O)O)C[C@@H](OC(=O)/C=C/c2ccc(O)c(O)c2)C1O ; result: >300 µM
CCCc1cc(=O)oc2c3c(c4c(c12)OC(C)(C)C=C4)O[C@@H](C)[C@H](C)[C@@H]3O ; result: 10–20 µM
CCCCCCCCCCCCCCCCOCCCOP(=O)(O)CO[C@H](CO)Cn1cc(F)c(N)nc1=O ; method: propidium iodide ; result: 41 µM
CC1=CC2=C(C(C)C)C(O)C(=O)/C(=C\N[C@H](CC(C)C)C(=O)O)C2C(O)=C1c1c(C)cc2c(C(C)C)c(O)c(O)c(C=N[C@@H](CC(C)C)C(=O)O)c2c1O.[Na+].[Na+] ; method: MTT ; result: 59.17 µM
CCCCCCCCCCCCCCCCOCCCOP(=O)(O)COCCn1cc(Br)c(N)nc1=O ; method: propidium iodide ; result: 38 µM
CC(C)C[C@H](N)C(=O)O.[Na+] ; method: MTT ; result: 59.17 µM
COC(=O)N[C@H](C(=O)N[C@@H](Cc1ccccc1)[C@@H](O)CN(Cc1ccc(-c2ccccn2)cc1)NC(=O)[C@@H](NC(=O)OC)C(C)(C)C)C(C)(C)C ; method: MTT ; result: 27.6 µM
CC(C)(C)NC(=O)[C@@H]1C[C@@H]2CCCC[C@@H]2CN1C[C@@H](OC(=O)C(CS)NC(=O)CCONC(=O)CCCCC1SCC2NC(=O)NC21)[C@H](Cc1ccccc1)NC(=O)[C@H](CC(N)=O)NC(=O)c1ccc2ccccc2n1 ; method: MTT ; result: 15 µM
C[C@@H]1CN2CCC[C@@H]3CCCCC[C@@H]4C(=O)[C@@H](C)CN5CCC[C@@H](CCCCC[C@@H](C1=O)[C@H]32)[C@H]45 ; method: MTT ; result: 371 µM
O=C(Nc1ccccn1)c1cccc(CN2C(=O)N(Cc3cccc(C(=O)Nc4ccccn4)c3)[C@H](Cc3ccccc3)[C@H](O)[C@@H](O)[C@H]2Cc2ccccc2)c1 ; result: >50 µM
CC(C)(N)C(=O)O.[Na+] ; method: MTT ; result: 77.35 µM
Nc1cccc(CN2C(=O)N(Cc3cccc(C(=O)Nc4nc5ccccc5[nH]4)c3)[C@H](Cc3ccccc3)[C@H](O)[C@@H](O)[C@H]2Cc2ccccc2)c1 ; result: >50 µM
O=c1cc(-c2ccc(O)cc2)oc2cc(O[C@@H]3O[C@H](CO)[C@@H](O)[C@H](O)[C@H]3OS(=O)(=O)O)cc(O)c12 ; result: >800 µM
Nc1ncnc2c1ncn2CCOCP(=O)(O)O ; result: 157 µM
COc1c(O)ccc(C(=O)N[C@@H](CSc2ccccc2)[C@H](O)CN2C[C@H]3CCCC[C@H]3C[C@H]2C(=O)NC(C)(C)C)c1C ; method: MTT ; result: 13.3 µM
O=C(Nc1cnccn1)c1cccc(CN2C(=O)N(Cc3cccc(C(=O)Nc4cnccn4)c3)[C@H](Cc3ccccc3)[C@H](O)[C@@H](O)[C@H]2Cc2ccccc2)c1 ; result: >50 µM
Nc1ncnc2c1ncn2CCOCP(=O)(O)O ; result: 160 µM
CC(C)CN(C[C@@H](O)[C@H](Cc1ccccc1)NC(=O)O[C@H]1CCOC1)S(=O)(=O)c1ccc(N)cc1 ; result: 48.2 µM
Nc1ncnc2c1ncn2[C@H]1CC[C@@H](CO)O1 ; result: >0.2 µM
CC[C@H](C)[C@H]1NC(=O)[C@@H](NC(=O)OC(C)(C)C)[C@@H](C)OC(=O)[C@H](Cc2ccc(OC)cc2)N(C)C(=O)[C@@H]2CCCN2C(=O)[C@H](CC(C)C)NC(=O)C(C)(C)NC(=O)C[C@@H]1O ; method: MTT ; result: >59.17 µM
OC1/C(=C/c2ccco2)CNC/C1=C\c1ccco1 ; method: XTT ; result: >156 µM
Nc1nc(=O)n(C[C@@H](CO)OCP(=O)(O)O)cc1F ; method: propidium iodide ; result: >100 µM
COC(=O)N[C@H](C(=O)N[C@@H](Cc1ccccc1)[C@@H](O)CN(Cc1ccc(-c2ccccn2)cc1)NC(=O)[C@@H](NC(=O)OC)C(C)(C)C)C(C)(C)C ; result: 32.4 µM
CC1=CC2=C(C(C)C)C(O)C(=O)/C(=C\N[C@@H](C(=O)O)C(C)C)C2C(O)=C1c1c(C)cc2c(C(C)C)c(O)c(O)c(C=N[C@H](C(=O)O)C(C)C)c2c1O.[Na+].[Na+] ; method: MTT ; result: 62.41 µM
Cc1ccc(NC(=O)c2cccc(CN3C(=O)N(Cc4cccc(C(=O)Nc5ccc(C)cn5)c4)[C@H](Cc4ccccc4)[C@H](O)[C@@H](O)[C@H]3Cc3ccccc3)c2)nc1 ; result: >50 µM
C[C@@H](Cn1cnc2c(N)nc(N)nc21)OCP(=O)(OCOC(=O)C(C)(C)C)OCOC(=O)C(C)(C)C ; result: 9 µM
Nc1nc2c(c(=O)[nH]1)N=CC2[C@H]1C=C[C@@H](CO)O1 ; method: MTT ; result: >100 µM
CCCc1cc(=O)oc2c3c(c4c(c12)OC(C)(C)C=C4)O[C@H](C)[C@@H](C)[C@@H]3O ; result: 7.7 µM
Nc1cccc(CN2C(=O)N(Cc3cccc(C(=O)Nc4cnccn4)c3)[C@H](Cc3ccccc3)[C@H](O)[C@@H](O)[C@H]2Cc2ccccc2)c1 ; result: >50 µM
CC[C@H](C)[C@H]1NC(=O)[C@@H](NC(=O)[C@@H](CC(C)C)N(C)C(=O)c2cc3ccccc3s2)[C@@H](C)OC(=O)[C@H](Cc2ccc(OC)cc2)N(C)C(=O)[C@@H]2CCCN2C(=O)[C@H](CC(C)C)NC(=O)[C@H](C(C)C)OC(=O)C[C@@H]1O ; method: MTT ; result: 0.17 µM
COc1cc(CN2C(=O)N(Cc3cccc(C(=O)Nc4cnccn4)c3)[C@H](Cc3ccccc3)[C@H](O)[C@@H](O)[C@H]2Cc2ccccc2)cc(OC)c1 ; result: >50 µM
O=C(O)c1cc(-c2ccc(/C=C3\SC(=S)N(c4cccc(F)c4)C3=O)o2)ccc1Cl ; method: XTT ; result: 84.5 µM
COc1cc(CN2C(=O)N(Cc3cccc(C(=O)Nc4cccc(C)n4)c3)[C@H](Cc3ccccc3)[C@H](O)[C@@H](O)[C@H]2Cc2ccccc2)cc(OC)c1 ; result: >50 µM
CC[C@H](C)[C@H](N)C(=O)O.[Na+] ; method: MTT ; result: 65.62 µM

A second listing of 5 rows from above:

compound,method,result
COC(=O)N[C@H](C(=O)N[C@@H](Cc1ccccc1)[C@@H](O)CN(Cc1ccc(-c2ccccn2)cc1)NC(=O)[C@@H](NC(=O)OC)C(C)(C)C)C(C)(C)C,MTT,27.6 µM
Fc1ccc(N=C2/C(=C/c3ccco3)CNC/C2=C\c2ccco2)cc1,XTT,>115 µM
Nc1cccc(CN2C(=O)N(Cc3cccc(C(=O)Nc4cnccn4)c3)[C@H](Cc3ccccc3)[C@H](O)[C@@H](O)[C@H]2Cc2ccccc2)c1,,>50 µM
Nc1nc2c(c(=O)[nH]1)N=CC2[C@H]1C=C[C@@H](CO)O1,MTT,>100 µM
CCCCCCCCCCCCCCCCOCCCOP(=O)(O)COCCn1cc(Br)c(N)nc1=O,propidium iodide,38 µM